Tested on: latent HIV-1 in blood CD4+ T cells from infected individuals on suppressive ART

O=c1sn(-c2cccc3ccccc23)c(=O)n1Cc1ccccc1 [Tideglusib, 4-benzyl-2-(naphthalen-1-yl)-1,2,4-thiadiazolidine-3,5-dione]
virus-associated HIV-1 mRNA, mean fold-change (1 μM, 48 hours, relative to untreated control): 38.32 fold
production and release of virions vs untreated control samples (blood CD4+ T cells): about 40 fold
